A mixed list of measured activities; the numbers were collected in NIAID ChemDB.

Common to all: toxicity to cultured cells; cell line: A549; measure: CC50

Blank or dashed fields: not listed here. Conditions beyond the fields shown may differ between rows. CCn: concentration that lowers growth or viability of the cells by n%.

{"smiles": "Cc1cc(Cl)ccc1-c1nc(=S)[nH][nH]1", "read by": "MTT", "value": ">100 µg/mL"}
{"smiles": "CCC(C)CN=C(N)c1ccc(N2CCN(c3ccc(C(N)=NCC(C)CC)cc3)CC2)cc1.Cl.Cl", "value": "93.9 µg/mL"}
{"smiles": "C=CCSc1n[nH]c(-c2ccc([N+](=O)[O-])c(C)c2)n1", "value": ">100 µg/mL"}
{"smiles": "CCC(C)CN=C(N)c1ccc(N2CCN(c3ccc(C(N)=NCC(C)CC)cc3)CC2)cc1", "value": ">0.107 µg/mL"}
{"smiles": "O=[N+]([O-])c1ccc(-c2nc(=S)[nH][nH]2)cc1C(F)(F)F", "read by": "MTT", "value": "52.72 µg/mL"}
{"smiles": "C#CCSc1n[nH]c(-c2ccc(Cl)cc2C)n1", "value": ">100 µg/mL"}
{"smiles": "FC(F)(F)c1ccc(-c2nc(=S)[nH][nH]2)cc1", "read by": "MTT", "value": "81.35 µg/mL"}
{"smiles": "CCCCCCCCCN=C(N)c1ccc(N2CCN(c3ccc(C(N)=NCCCCCCCCC)cc3)CC2)cc1", "value": "3.17 µg/mL"}
{"smiles": "COc1cc(O)c2c(c1)C(=O)C(CC(C)=O)=C(C)C2=O", "read by": "MTT", "value": "76.5 µg/mL"}
{"smiles": "C#CCSc1n[nH]c(-c2ccc([N+](=O)[O-])c(C)c2)n1", "value": ">100 µg/mL"}
{"smiles": "C#CCSc1n[nH]c(-c2ccc(C(F)(F)F)cc2)n1", "read by": "MTT", "value": "73.21 µg/mL"}
{"smiles": "COc1cc(O)c2c(c1O)C1O[C@]3(C)C[C@H]1[C@@H](CO3)C2=O", "read by": "MTT", "value": "92.5 µg/mL"}
{"smiles": "Cl.Cl.N=C(N)c1ccc(NC(=O)CCCC(=O)Nc2ccc(C(=N)N)cc2)cc1", "value": "1000 µg/mL"}
{"smiles": "CCCCSc1n[nH]c(-c2ccco2)n1", "value": ">100 µg/mL"}
{"smiles": "CCCCCN=C(N)c1ccc(N2CCN(c3ccc(C(N)=NCCCCC)cc3)CC2)cc1.Cl.Cl", "value": "66.3 µg/mL"}
{"smiles": "CCCCSc1n[nH]c(-c2cccc([N+](=O)[O-])c2C)n1", "value": ">100 µg/mL"}
{"smiles": "Cc1ccc(Cl)cc1-c1nc(=S)[nH][nH]1", "read by": "MTT", "value": ">100 µg/mL"}
{"smiles": "C=C(C)[C@@H]1CCC2(C(=O)OC)CC[C@]3(C)C(CCC4[C@@](C)(CC#N)C(C(C)(C)C(=O)NCC(=O)OCC)CC[C@]43C)C12", "read by": "MTT", "value": ">100 µM"}
{"smiles": "FC(F)(F)c1ccc(Cl)c(-c2nc(=S)[nH][nH]2)c1", "read by": "MTT", "value": ">100 µg/mL"}
{"smiles": "CCCCCCCCCCCCN=C(N)c1ccc(N2CCN(c3ccc(C(N)=NCCCCCCCCCCCC)cc3)CC2)cc1", "value": "14.3 µg/mL"}
{"smiles": "O=[N+]([O-])c1ccc(-c2nc(=S)[nH][nH]2)cc1", "read by": "MTT", "value": ">100 µg/mL"}
{"smiles": "CCCCCN=C(N)c1ccc(N2CCN(c3ccc(C(N)=NCCCCC)cc3)CC2)cc1", "value": ">0.14 µg/mL"}
{"smiles": "C=CCSc1n[nH]c(-c2cccc([N+](=O)[O-])c2C)n1", "value": ">100 µg/mL"}
{"smiles": "CC(C)CS[C@@H]1C[C@H](n2cnc3c(N)ncnc32)[C@@H](O)[C@H]1O", "value": ">200 µg/mL"}
{"smiles": "COC1=CC(=O)c2c(O)c(C)c3cc(C)oc3c2C1=O", "read by": "MTT", "value": "1.1 µg/mL"}

A second listing of 2 rows from above:

smiles,read by,value
CCCCCCCCCN=C(N)c1ccc(N2CCN(c3ccc(C(N)=NCCCCCCCCC)cc3)CC2)cc1,,3.17 µg/mL
FC(F)(F)c1ccc(Cl)c(-c2nc(=S)[nH][nH]2)c1,MTT,>100 µg/mL